Compound potency records, mixed from different reports. Data source: NIAID ChemDB in PubChem.

Shared fields: growth or infection tests; species: Candida albicans

Inhibition is in % at the dose shown (toxicity tests: loss of growth or viability). ECn is the concentration giving n% inhibition of infection, replication or growth. MIC50, MIC90 and the like: level of inhibition, or share of isolates inhibited. Blank or dashed fields: not listed here. Zones are inhibition diameters on agar. Rows are shuffled and stem from different studies.

| compound | strain | method | endpoint | dose | result |
|---|---|---|---|---|---|
| CC1=C[C@@H](OC(=O)C(C)=C(C)C)[C@@]2(C)C(=O)C[C@H](C(C)C)[C@@]2(O)CC1 | - | broth dilution | EC90 | - | >50 µg/mL |
| CC1(C)O[C@H]2[C@H](O)[C@@H](N=[N+]=[N-])C=C(c3ccc(C=O)cc3)[C@H]2O1 | ATCC 10231 | broth dilution / turbidity | inhibition | 250 µg/mL | 100% |
| CC1=C[C@H](OCC(=O)c2ccc(O)cc2)[C@@H]2[C@](C)(CC[C@@]2(O)C(C)C)CC1=O | - | broth dilution | EC90 | - | >50 µg/mL |
| CCCCCOC[N+](C)(C)Cc1cc(N=Nc2ccc(Cl)cc2)ccc1O | - | - | MBC | - | 1750 µM |
| CC(C)[C@]1(O)CC[C@]2(C)C=C[C@@](C)(O)C[C@H](OCC(=O)c3ccc(O)cc3)[C@H]21 | - | broth dilution | EC90 | - | >50 µg/mL |
| CC1CC(=O)N(CCc2ccccc2)C1=O | ATCC 10231 | broth dilution / turbidity | MIC | - | 125 µg/mL |
| CC1CCC(OC[N+](C)(C)Cc2cc(N=Nc3ccc(Cl)cc3)ccc2O)CC1 | - | - | MBC | - | 1106 µM |
| CC1C(=O)N(CCCCc2ccccc2)C(=O)C1C | ATCC 10231 | broth dilution / turbidity | MIC | - | 125 µg/mL |
| COc1cc(C(=O)CO[C@H]2C=C(C)C(=O)C[C@@]3(C)CC[C@@](O)(C(C)C)[C@H]23)ccc1O | - | broth dilution | EC90 | - | >50 µg/mL |
| C[C@@H]1C(=O)N(Cc2ccccc2)C(=O)[C@@H]1C | ATCC 10231 | broth dilution / turbidity | MIC | - | 31.3 µg/mL |
| N=C(N)c1ccc2nc(-c3ccc(-c4nc5ccc(C(=N)N)cc5[nH]4)[nH]3)[nH]c2c1 | Isolate CA783 | - | MFC | - | 0.78 µg/mL |
| C/C=C/C1=CC2=CC(=O)[C@](C)(OC(=O)c3c(C)cc(O)c(O)c3OC)C(=O)C2=CO1 | ATCC 64548 | agar diffusion | zone | 0.1 µg/disc | 0 mm |
| Clc1ccc(C(c2ccccc2)n2nnc3ccccc32)cc1 | - | agar | MIC90 | - | >256 µg/mL |
| C[N+](C)(COC1CCCCCCC1)Cc1cc(N=Nc2ccc(Cl)cc2)ccc1O | - | - | MBC | - | 536 µM |
| Clc1ccc(C(c2ccccc2)N2CCN(CCn3ccnc3)CC2)cc1 | - | agar | MIC90 | - | >256 µg/mL |
| C[C@@H](N1CCN(Cc2cn(Cc3ccc(F)cc3)c3c(F)cccc23)CC1)[C@](O)(Cn1cncn1)c1ccc(F)cc1F | ATCC 64548 | resazurin | MIC80 | - | 0.125 µg/mL |
| C[N+](C)(COC1CCCC1)Cc1cc(N=Nc2ccc(Cl)cc2)ccc1O | - | - | MBC | - | 146 µM |
| Cc1ccc(C(C)C)c(O)c1 | ATCC 10231 | - | MLC | - | 0.32 µg/mL |
| c1ccc(C(c2ccccc2)n2nnc3ccccc32)cc1 | - | agar | MIC90 | - | >256 µg/mL |
| COc1cc(C(=O)CO[C@H]2CC(C)=CC[C@@]3(C)CC[C@@](O)(C(C)C)[C@H]23)ccc1O | - | broth dilution | EC90 | - | >50 µg/mL |
| CCCCOC[N+](C)(C)Cc1cc(N=Nc2ccc(C)cc2)ccc1O | - | - | MBC | - | 319 µM |
| FC(F)(F)c1ccc(OC(CCn2ccnc2)c2ccccc2)cc1 | 20 strains | - | MFC50 | - | 64 µg/mL |
| C[C@H]1[C@H](O)[C@@H](C)/C=C/C=C/C=C/C=C/C=C/C=C/C=C/[C@H](O[C@@H]2O[C@H](C)[C@@H](O)[C@H](N)[C@@H]2O)C[C@@H]2O[C@](O)(C[C@@H](O)C[C@@H](O)CC[C@H](O)[C@@H](O)C[C@@H](O)CC(=O)O[C@H]1C)C[C@H](O)[C@H]2C(=O)O | Clinical isolate | visual reading | MFC | - | 1 µg/mL |
| C=CCc1ccc(O)c(OC)c1 | 3068 | turbidity | MIC90 | - | 495 µg/mL |
| CCOC[N+](C)(C)Cc1cc(N=Nc2ccc(Cl)cc2)ccc1O | - | - | MBC | - | 651 µM |
| C[C@@H]1CC(=O)N(c2ccccc2)C1=O | ATCC 10231 | broth dilution / turbidity | MIC | - | 62.5 µg/mL |
| C[C@H]1[C@H](O)[C@@H](C)/C=C/C=C/C=C/C=C/C=C/C=C/C=C/[C@H](O[C@@H]2O[C@H](C)[C@@H](O)[C@H](N)[C@@H]2O)C[C@@H]2O[C@](O)(C[C@@H](O)C[C@@H](O)CC[C@H](O)[C@@H](O)C[C@@H](O)CC(=O)O[C@H]1C)C[C@H](O)[C@H]2C(=O)O | 12 isolates fluconazole-resistant | - | Geometric mean MIC | - | 0.472 µg/mL |
| C[C@@H](N1CCN(Cc2cn(Cc3ccc(F)cc3)c3ccccc23)CC1)[C@](O)(Cn1cncn1)c1ccc(F)cc1F | ATCC MYA-1003 | resazurin | MIC80 | - | 16 µg/mL |
| Cc1ccccc1N1C(=O)CC(C)C1=O | ATCC 10231 | broth dilution / turbidity | MIC | - | 250 µg/mL |
| Clc1ccc(C(CCn2ccnc2)Oc2ccc(Cl)cc2Cl)cc1 | 20 strains | - | MFC90 | - | 4 µg/mL |
| CC1=CC[C@@]2(C)CC[C@@](O)(C(C)C)[C@@H]2[C@@H](OCC(=O)c2ccc(O)cc2)C1 | - | broth dilution | EC90 | - | >50 µg/mL |
| Fc1ccc(OC(CCn2ccnc2)c2ccccc2)c(F)c1 | 20 strains | - | MFC90 | - | 128 µg/mL |
| C[C@@H](N1CCN(Cc2cn(Cc3ccc(Cl)cc3Cl)c3c(F)cccc23)CC1)[C@](O)(Cn1cncn1)c1ccc(F)cc1F | ATCC 90028 | resazurin | MIC80 | - | 0.125 µg/mL |
| O=C(c1ccccc1)C(c1ccccc1)n1cnc2ccccc21 | - | broth dilution | MFC | - | >256 µg/mL |
| CC(C)[C@]1(O)CC[C@]2(C)C[C@@H]3O[C@]3(C)C[C@H](OCC(=O)c3ccc(O)cc3)[C@H]21 | - | broth dilution | EC90 | - | >50 µg/mL |
| C[C@@H](N1CCN(Cc2cn(Cc3ccc(C(F)(F)F)cc3)c3ccccc23)CC1)[C@](O)(Cn1cncn1)c1ccc(F)cc1F | ATCC MYA-1003 | resazurin | MIC80 | - | 64 µg/mL |
| CCCCCOc1ccc(-c2cc(-c3ccc(C(=O)N[C@H]4C[C@@H](O)[C@@H](O)NC(=O)[C@@H]5[C@@H](O)[C@@H](C)CN5C(=O)[C@H]([C@H](O)CC(N)=O)NC(=O)[C@H]([C@H](O)[C@@H](O)c5ccc(O)c(OS(=O)(=O)O)c5)NC(=O)[C@@H]5C[C@@H](O)CN5C(=O)[C@H]([C@@H](C)O)NC4=O)cc3)no2)cc1 | 5 isolates fluconazole-susceptible | - | Geometric mean MIC | - | 0.01 µg/mL |
| CC1=C[C@H](OCC(=O)c2ccc(O)cc2)[C@@H]2[C@](C)(CC[C@@]2(O)C(C)C)CC1O | - | broth dilution | EC90 | - | >50 µg/mL |
| Clc1ccc(C(c2ccccc2)n2cnc3ccccc32)cc1 | - | agar | MIC90 | - | 16 µg/mL |
| CCCCOC[N+](C)(C)Cc1cc(N=Nc2ccc(Cl)cc2)ccc1O | - | - | MBC | - | 608 µM |
| O=C(c1ccccc1)C(c1ccccc1)n1nnc2ccccc21 | - | agar | MIC90 | - | >256 µg/mL |
| Fc1ccc(C(CCn2ccnc2)Oc2ccc(Cl)cc2Cl)cc1 | 20 strains | - | MFC50 | - | 8 µg/mL |

5 of the rows above, restated:

compound	strain	method	endpoint	dose	result
O=C(c1ccccc1)C(c1ccccc1)n1cnc2ccccc21	-	broth dilution	MFC	-	>256 µg/mL
C[C@H]1[C@H](O)[C@@H](C)/C=C/C=C/C=C/C=C/C=C/C=C/C=C/[C@H](O[C@@H]2O[C@H](C)[C@@H](O)[C@H](N)[C@@H]2O)C[C@@H]2O[C@](O)(C[C@@H](O)C[C@@H](O)CC[C@H](O)[C@@H](O)C[C@@H](O)CC(=O)O[C@H]1C)C[C@H](O)[C@H]2C(=O)O	Clinical isolate	visual reading	MFC	-	1 µg/mL
CC1=CC[C@@]2(C)CC[C@@](O)(C(C)C)[C@@H]2[C@@H](OCC(=O)c2ccc(O)cc2)C1	-	broth dilution	EC90	-	>50 µg/mL
CC1C(=O)N(CCCCc2ccccc2)C(=O)C1C	ATCC 10231	broth dilution / turbidity	MIC	-	125 µg/mL
C[N+](C)(COC1CCCCCCC1)Cc1cc(N=Nc2ccc(Cl)cc2)ccc1O	-	-	MBC	-	536 µM